Test system: HIV-1 reverse transcriptase (Human immunodeficiency virus 1)
Test: activity assay
Details: purified recombinant protein, label: 5'-32P, single-stranded DNA
[1] = intramolecular 3' extension with premature termination, data not shown

Sequence | activity on this sequence (intramolecular 3' extension, initiation nearly 100%, stops after 5-8 nt) | activity on this sequence [1]
ATCCGCCTGATTAGCGATACTTACGTGAGCGTGCTGTCCCCTAAAGGTGATACGTCACTTGAGCAAAATCACCTGCAGGGG [RT26] | active | 
ATCCGCCTGATTAGCGATACTCGTATAGGTCCCCTGCCGCTAAACAGCGCCGCGGTAACTTGAGCAAAATCACCTGCAGGGG [RT12] |  | active
ATCCGCCTGATTAGCGATACTTATTTGCCCTTGCAGGCCGCAGGAGTGCTAGCAGTACTTGAGCAAAATCACCTGCAGGGG [RT10] |  | active

Source: patent US5786462
